Test results from PubChem BioAssay AID449764 (Southern Research Specialized Biocontainment Screening …, 2010).

System: Mycobacterium tuberculosis H37Rv growth inhibition, no glycerol
Assay: Mycobacterium tuberculosis H37Rv growth inhibition, no glycerol, confirmatory dose response (AID 449764);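 note: growth read after 7 days of incubation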
Details: measured here: IC90 growth inhibition

Row | SMILES | IC90
1 | O=[N+]([O-])c1cc([N+](=O)[O-])c(CCNc2ccccc2)c([N+](=O)[O-])c1 | 23.4 µM
2 | CC(=O)NC(SC(=S)N(C)C)C(Cl)(Cl)Cl (stereo not drawn) | 33.5 µM
3 | CN(C)C(=O)c1cc([N+](=O)[O-])cc2c1-c1c(cc([N+](=O)[O-])cc1[N+](=O)[O-])C2=O | 12.2 µM
